In ChEMBL document CHEMBL1133572, “Protease inhibitors: current status and future prospects” (J Med Chem, 2000):

Biological target: Human immunodeficiency virus type 1 protease (Human immunodeficiency virus 1, UniProt Q72874)
Assay: Binding affinity against ritonavir-resistant strains.

Cc1cccc(C)c1OCC(=O)N[C@@H](Cc1ccccc1)[C@@H](O)C[C@H](Cc1ccccc1)NC(=O)[C@H](C(C)C)N1CCCNC1=O [LOPINAVIR]
Ki: 4 pM
